Measured values from several laboratories, pooled; numbers as filed in NIAID ChemDB.

Shared fields: tests in culture; organism: Mycobacterium tuberculosis

Inhibition is in % at the dose shown (toxicity tests: loss of growth or viability). MIC bound: limit read from a one-dose screen. An empty or dashed field is not shown. ECn: concentration that inhibits the pathogen or its effect by n%. Neighbouring rows are from separate reports.

| compound | method | cell line | dose | strain | endpoint | value |
|---|---|---|---|---|---|---|
| Nc1ccc2nc3ccc(O)cc3nc2c1.S.[Na+].[Na+].[SH-] | BACTEC | - | 12.5 µg/mL | H37Rv | inhibition | -14% |
| CCOC(=O)Nc1cc2c(c(N)n1)N=C(c1ccc(F)cc1)CN2 | - | - | - | H37Rv | EC50 | <12.5 µg/mL |
| COC(=O)c1cc(O)ccc1O | - | - | - | H37Rv | MIC | 100 µg/mL |
| COc1cc(C2C(C#N)=C(C)Nc3nc(N)nc(N)c32)cc(OC)c1OC | resazurin | - | 6.25 µg/mL | H37Rv | inhibition | 8% |
| O=C(O)c1ccc(C(=O)c2ccccc2)c2c1C(=O)c1ccccc1C2=O | - | - | - | H37Rv | MIC | >100 µg/mL |
| CO[C@@]12[C@H](COC(N)=O)C3=C(C(=O)C(C)=C(N)C3=O)N1C[C@H]1[C@@H]2N1C(=O)C1N2C(=O)[C@@H](NC(=O)Cc3ccccc3)[C@H]2SC1(C)C | - | - | - | PAS-R | MIC | 0.4 µg/mL |
| CCOC(=O)C(C(=O)OCC)N1C(=O)c2ccccc2C1=O | - | - | - | H37Rv | MIC | >100 µg/mL |
| CCOCCCNCCNC[C@]1(C)CCC[C@]2(C)c3ccc(C(C)C)cc3CC[C@@H]12 | - | - | - | - | MIC | 25 µM |
| CCOC(=O)Nc1cc(NC(C)CCCN(CC)CC)c2ncc(-c3ccc(Cl)c(Cl)c3)nc2n1 | - | VERO | - | H37Rv | EC50 | <12.5 µg/mL |
| CC(C)N=c1cc2n(-c3ccc(Cl)cc3)c3ccccc3nc-2cc1Nc1ccc(Cl)cc1 | broth dilution / resazurin | - | - | MDR18 | MIC | 2 µg/mL |
| CC(=O)OC1c2c(ccc3ccccc23)CCC1CN(C)C.Cl | - | - | - | H37Rv | MIC | 100 µg/mL |
| CN[C@@H]1[C@H](O[C@H]2[C@H](O[C@H]3[C@H](O)[C@@H](O)[C@H](N=C(N)N)[C@@H](O)[C@@H]3N=C(N)N)O[C@@H](C)[C@]2(O)C=O)O[C@@H](CO)[C@H](O)[C@H]1O | - | - | - | TN3806 (W1) | MIC | >2 µg/mL |
| CC(C)(O)C#CC(C)(C)O | - | - | - | H37Rv | MIC | 100 µg/mL |
| N=C1OCCN1/N=C/c1ccc([N+](=O)[O-])o1 | resazurin | - | 6.25 µg/mL | H37Rv | inhibition | -10% |
| COc1ccccc1 | - | - | - | H37Rv | MIC | >100 µg/mL |
| c1ccc(C(CNCCNCCN2CCOCC2)c2ccccc2)cc1 | - | - | - | - | MIC | 25 µM |
| CCOc1ccc(-c2ccccc2)cc1 | - | - | - | H37Rv | MIC | 100 µg/mL |
| Cc1ccc(NCCN(C)C)c2c(=O)c3cc(O)ccc3sc12.I | BACTEC | - | - | H37Rv | MIC bound | >12.8 µg/mL |
| NNc1ccc(C(=O)O)cc1 | - | - | - | H37Rv | MIC | >100 µg/mL |
| CCOC(=O)Nc1cc(NC)c([N+](=O)[O-])c(N)n1 | - | - | - | H37Rv | EC50 | >12.5 µg/mL |
| Oc1ccc(CCNCCNCCc2ccc(Cl)cc2Cl)cc1 | - | - | - | - | MIC | 50 µM |
| CO[C@H]1/C=C/O[C@@]2(C)Oc3c(C)c(O)c4c(O)c(c5c(c4c3C2=O)NC2(CCN(CC(C)C)CC2)N=5)=NC(=O)/C(C)=C\C=C\[C@H](C)[C@H](O)[C@@H](C)[C@@H](O)[C@@H](C)[C@H](OC(C)=O)[C@@H]1C | - | - | - | 3125 (rifampin-sensitive) | MIC | 0.012 µg/mL |
| COc1cc(NCCCN2C(=O)c3ccccc3C2=O)c2ncccc2c1 | - | - | - | H37Rv | MIC | >100 µg/mL |
| O=C1c2ccccc2C(=O)c2c1c(O)cc1oc(-c3ccccc3)nc21 | resazurin | - | 6.25 µg/mL | H37Rv | inhibition | -3% |
| Clc1ccc(CCNCCNCc2cccc3ccccc23)c(Cl)c1 | - | - | - | - | MIC | 25 µM |
| Nc1ccccc1/C=C/C(=O)c1ccc(Br)cc1O | - | - | - | H37Rv | EC50 | >12.5 µg/mL |
| CC(Cc1c[nH]c2ccccc12)NCCNCc1ccco1 | - | - | - | - | MIC | 50 µM |
| C[C@@H](NCCNCCC(c1ccccc1)c1ccccc1)C1CCCCC1 | - | - | - | - | MIC | 6.25 µM |
| Oc1cc(-c2ccccc2)c(O)cc1-c1ccccc1 | - | - | - | H37Rv | MIC | 25 µg/mL |
| CC(NCCNC[C@@H]1CC[C@H]2C[C@@H]1C2(C)C)C12CC3CC(CC(C3)C1)C2 | - | - | - | - | MIC | 50 µM |
| COC(=O)c1cc2ccccc2c(N=Nc2ccccc2C(=O)O)c1O | - | - | - | H37Rv | MIC | >100 µg/mL |
| Fc1ccc(CCNCCNC(c2ccccc2)c2ccccc2)cc1 | - | - | - | - | MIC | 50 µM |
| Cn1c2c(c(=O)n(C)c1=O)S(=O)(=O)N=CN2 | BACTEC | - | 12.5 µg/mL | H37Rv | inhibition | 0% |
| Cc1ccc(O)c(O)c1 | - | - | - | H37Rv | MIC | >100 µg/mL |
| COc1cc([C@H]2OC(=O)C3C2C(=O)O[C@@H]3c2cc(OC)c(OC)c(OC)c2)cc(OC)c1OC | BACTEC | - | 12.5 µg/mL | H37Rv | inhibition | 0% |
| OCCNCCOc1ccccc1-c1ccccc1 | - | - | - | H37Rv | MIC | >100 µg/mL |
| CCCCC(CC)CN1CN(CC(CC)CCCC)CC(C)(NCCNC2CCc3ccccc32)C1 | - | - | - | - | MIC | 25 µM |
| COc1ccc2c(c1)[n+](=O)c(C(=O)C/C(=N\NC(=O)C[N+](C)(C)C)C(=O)Nc1cc(Cl)ccc1Cl)c(C)n2[O-].[Cl-] | BACTEC | - | 12.5 µg/mL | H37Rv | inhibition | 32% |
| Cc1ccc(N)c(S(=O)(=O)O)c1 | - | - | - | H37Rv | MIC | 100 µg/mL |
| O=c1cc(-c2ccccc2-c2cccc3c(=O)cc(-c4ccccc4)oc23)oc2ccccc12 | - | - | - | - | EC50 | >12.5 µg/mL |
| CC(C(=O)NN)C1(O)CCCCC1 | BACTEC | - | 12.5 µg/mL | H37Rv | inhibition | 10% |
| O=C(O)c1ccccc1-c1ccccc1C(=O)O | - | - | - | H37Rv | MIC | 100 µg/mL |
| C=C1C(=O)[C@@]23C[C@@H]1C[C@H](O)[C@@H]2C1(CCC[C@@](C)(COC(C)=O)C1C=O)COC3=O | BACTEC | - | - | H37Rv | MIC bound | >12.5 µg/mL |
| O=C(/C=C/c1ccccc1)c1cc(Cl)ccc1O | - | - | - | H37Rv | EC50 | <12.5 µg/mL |
| CC(C)c1ccc2c(c1)CC[C@H]1[C@](C)(CNCCNCc3ccc(F)cc3)CCC[C@]21C | - | - | - | - | MIC | 50 µM |
| CC(C)c1ccc2c(c1)CC[C@H]1[C@](C)(CNCCNCCc3ccccc3Cl)CCC[C@]21C | - | - | - | - | MIC | 50 µM |
| O=c1[nH]c2ccccc2c(=O)n1-c1ccccc1 | resazurin | - | 6.25 µg/mL | H37Rv | inhibition | -13% |
| O=C(CCCCC(=O)Nc1ccc(I)cc1I)Nc1ccc(I)cc1I | - | - | - | H37Rv | MIC | >100 µg/mL |
| Nc1nc(N)nc(-c2ccc([N+](=O)[O-])o2)n1 | - | - | - | RMP-R | MIC | 6.3 µg/mL |
| CCOC(=O)Nc1cc2[nH]c(-c3ccccc3)nc2c(Cl)n1 | - | - | - | H37Rv | EC50 | >12.5 µg/mL |
| O=C(O)c1cccnn1 | BACTEC | - | 12.5 µg/mL | H37Rv | inhibition | 1% |
| NC(=O)Cc1ccccn1 | - | - | - | H37Rv | MIC | >100 µg/mL |
| CC(C)c1ccc2c(c1)CC[C@H]1[C@](C)(CNCCNCc3ccccc3F)CCC[C@]21C | - | - | - | - | MIC | 12.5 µM |
| CC(CNCCc1ccccc1F)NC1CCCC(C)C1C | - | - | - | - | MIC | >50 µM |
| CO[C@H]1/C=C/O[C@@]2(C)Oc3c(C)c(O)c4c(=O)c(c5oc6cc(N7CCN(C(C)C)CC7)cc(=O)c6nc5c4c3=C2O)NC(=O)/C(C)=C\C=C\[C@H](C)[C@H](O)[C@@H](C)[C@@H](O)[C@@H](C)[C@H](OC(C)=O)[C@@H]1C | - | - | - | 31 (rifampin-resistant) | MIC | 0.2 µg/mL |
| CC(=O)C1C(=O)OC(C)=C(C(=O)[O-])C1=O.[K+] | - | - | - | H37Rv | MIC | >100 µg/mL |
| O=[N+]([O-])c1ccc(-c2csc(Nc3ccccn3)n2)o1 | BACTEC | - | - | H37Rv | MIC bound | >12.5 µg/mL |
| O=C(O)CCSc1ccccc1 | - | - | - | H37Rv | MIC | >100 µg/mL |
| O=c1c(Cl)c2sc3ccc(Cl)cc3nc-2c2ccccc12 | BACTEC | - | - | H37Rv | MIC bound | >12.5 µg/mL |
| NCC1CCCO1 | - | - | - | H37Rv | MIC | >100 µg/mL |
| CC(C)(C)OC(=O)NC(CSCc1ccc(C(=O)c2ccccc2)cc1)C(=O)O | resazurin | - | 6.25 µg/mL | H37Rv | inhibition | -2% |
| CCOC(=O)Nc1cc2oc(=O)c(-c3ccccc3)nc2c(N)n1 | - | - | - | H37Rv | EC50 | >12.5 µg/mL |
| CCOC(=O)c1cc2nc3ccccn3c(=O)c2cc1N | BACTEC | - | - | H37Rv | MIC bound | >12.5 µg/mL |
| Nc1ncccc1/C=C/C(=O)c1ccc2c(ccc3ccccc32)c1 | - | - | 12.5 µg/mL | H37Rv | inhibition | 74% |
| NC1=NN(c2ccccc2)C(=O)C1C(=O)C(=O)Nc1ccc(Cl)cc1 | resazurin | - | - | H37Rv | MIC bound | >6.25 µg/mL |
| C[C@H](NCCNCc1ccc(C(F)(F)F)cc1)C1CCCCC1 | - | - | - | - | MIC | 50 µM |
| COc1cc(C)c2sc3ccccc3c(=O)c2c1NCCCN(C)C | BACTEC | - | 12.5 µg/mL | H37Rv | inhibition | 95% |
| c1ccc(CCCCNCCNC2CCc3ccccc32)cc1 | - | - | - | - | MIC | 50 µM |

5 of the rows above, restated:

compound	method	cell line	dose	strain	endpoint	value
CC(NCCNC[C@@H]1CC[C@H]2C[C@@H]1C2(C)C)C12CC3CC(CC(C3)C1)C2	-	-	-	-	MIC	50 µM
CCOC(=O)Nc1cc(NC(C)CCCN(CC)CC)c2ncc(-c3ccc(Cl)c(Cl)c3)nc2n1	-	VERO	-	H37Rv	EC50	<12.5 µg/mL
OCCNCCOc1ccccc1-c1ccccc1	-	-	-	H37Rv	MIC	>100 µg/mL
COc1cc(C2C(C#N)=C(C)Nc3nc(N)nc(N)c32)cc(OC)c1OC	resazurin	-	6.25 µg/mL	H37Rv	inhibition	8%
CCOC(=O)c1cc2nc3ccccn3c(=O)c2cc1N	BACTEC	-	-	H37Rv	MIC bound	>12.5 µg/mL